In brackets after ≈: the same amount, converted by molar mass.

Consider three molecules from US11246922B1, “Vaccine RNA-peptide against SARS-CoV-2 with endogenous exosomes as carrier” (Elidan America, LLC., priority 2021, dated 2022).

Series [1] is described as follows: in vitro. The note with it: human.
A short description of series [2]: in vitro. To be noted: human. This is another data set of the same source.

As for `OO` [H2O2, Hydrogen peroxide solution, reference compound], in the series “in vitro [1]”, the CC50 came to 131 µg/mL (≈ 3850 µM).
`CC(C)[C@H](NC(=O)CN)C(=O)N[C@@H](CC(=O)O)C(=O)N[C@@H](CCC(=O)O)C(=O)N[C@H](C(=O)N[C@@H](C)C(=O)N[C@@H](CCCCN)C(=O)N[C@@H](CCCCN)C(=O)N[C@@H](CCCCN)C(=O)N[C@@H](CO)C(=O)N[C@@H](CCCCN)C(=O)O)C(C)C` [Peptide-B] registered a CC50 in “in vitro [2]” of 135 µg/mL (≈ 114 µM).
On to Phosphate-buffered saline [PBS], for which the CC50 with BEAS-2B cell line amounted to 490 µg/mL; with HUVEC cell line, 468 µg/mL; with HMEC-1 cell line it was 451 µg/mL; in the series on HEK293 cell line, 356 µg/mL; with WM-266 cell line, 456 µg/mL.
